Sequence variants of PSTVd stem 15 after infection

Values reported by Wu et al. 2024 (doi:10.1371/journal.ppat.1012142).

PSTVd intermediate strain, stem 15: wild type CUGGAGCGAUCGCUUCGG, pool pattern CUGGAGCGAUNGNNUNNG; upper and lower strand joined, each 5' to 3', the first 9 letters being the upper strand.

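A pool of all variants was put on leaves of three Nicotiana benthamiana plants. Samples came from the inoculated region at 5 days, the leaf margin at 10 and upper systemic leaves at 12.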

Numbers give reads per thousand; 0 = not seen among the reads, higher = more abundant. Each site shows the three plants. "Pool" is the share in the plasmid pool used as inoculum, on the same scale. The inoculated region was read from the minus strand, the other sites from the plus strand. Wild type was 10.2 per thousand in the pool and the most common sequence in every sample (inoculated region 285, 367, 312; leaf margin 785, 865, 782; systemic leaves 854, 898, 915).

sequence	pool	inoculated region	leaf margin	systemic leaves
CUGGAGCGAUGGGAUUUG	0.824	0.235 / 0.209 / 0.186	0.0620 / 0.0818 / 0.0317	0 / 0 / 0
CUGGAGCGAUGGGCUAAG	0.921	0.215 / 0.293 / 0.372	0.0207 / 0.0545 / 0.0317	0 / 0 / 0
CUGGAGCGAUGGGCUACG	0.776	0.430 / 0.398 / 0.205	0.186 / 0.0545 / 0.0317	0 / 0 / 0
CUGGAGCGAUGGGCUAGG	0.889	0.313 / 0.272 / 0.298	0.0620 / 0.0273 / 0.0317	0 / 0 / 0
CUGGAGCGAUGGGCUAUG	0.776	0.352 / 0.209 / 0.335	0.0827 / 0.0273 / 0.0317	0 / 0 / 0
CUGGAGCGAUGGGCUCAG	0.857	0.196 / 0.272 / 0.242	0.0207 / 0.0545 / 0.0317	0 / 0 / 0
CUGGAGCGAUGGGCUCCG	0.792	0.372 / 0.251 / 0.428	0.103 / 0 / 0	0 / 0 / 0
CUGGAGCGAUGGGCUCGG	1.07	0.411 / 0.293 / 0.316	0.145 / 0.0273 / 0	0 / 0 / 0
CUGGAGCGAUGGGCUCUG	0.824	0.274 / 0.230 / 0.298	0.0827 / 0.0273 / 0.0159	0 / 0 / 0
CUGGAGCGAUGGGCUGAG	0.598	0.215 / 0.335 / 0.298	0 / 0 / 0.0476	0 / 0 / 0
CUGGAGCGAUGGGCUGCG	0.986	0.274 / 0.168 / 0.447	0.103 / 0.136 / 0	0 / 0 / 0
CUGGAGCGAUGGGCUGGG	0.840	0.274 / 0.293 / 0.354	0.103 / 0.0545 / 0.0159	0 / 0 / 0
CUGGAGCGAUGGGCUGUG	0.598	0.215 / 0.335 / 0.391	0 / 0.0273 / 0.0476	0 / 0 / 0
CUGGAGCGAUGGGCUUAG	0.776	1.68 / 0.754 / 1.73	0 / 0 / 0.0159	0 / 0 / 0
CUGGAGCGAUGGGCUUCG	0.857	0.294 / 0.126 / 0.316	0.0620 / 0.0273 / 0.0159	0 / 0 / 0
CUGGAGCGAUGGGCUUGG	0.792	0.294 / 0.168 / 0.242	0 / 0 / 0	0 / 0 / 0
CUGGAGCGAUGGGCUUUG	1.08	0.215 / 0.921 / 0.354	0.0207 / 0 / 0.0317	0 / 0 / 0
CUGGAGCGAUGGGGUAAG	0.711	0.274 / 0.293 / 0.372	0.103 / 0.0273 / 0.0159	0 / 0 / 0
CUGGAGCGAUGGGGUACG	0.776	0.333 / 0.168 / 0.372	0.0414 / 0 / 0.0317	0 / 0 / 0
CUGGAGCGAUGGGGUAGG	0.873	0.176 / 0.147 / 0.335	0.103 / 0.109 / 0.0317	0 / 0 / 0
CUGGAGCGAUGGGGUAUG	1.65	0.607 / 0.670 / 0.670	0.0414 / 0 / 0.0159	0 / 0 / 0
CUGGAGCGAUGGGGUCAG	0.986	0.333 / 0.293 / 0.186	0.0620 / 0.0273 / 0.0317	0 / 0 / 0
CUGGAGCGAUGGGGUCCG	0.760	0.215 / 0.168 / 0.223	0.103 / 0.0273 / 0.0159	0 / 0 / 0
CUGGAGCGAUGGGGUCGG	0.824	0.352 / 0.251 / 0.261	0.0620 / 0.0545 / 0.0476	0 / 0 / 0
CUGGAGCGAUGGGGUCUG	0.937	0.176 / 0.251 / 0.279	0.0207 / 0.0273 / 0	0 / 0 / 0
CUGGAGCGAUGGGGUGAG	0.824	0.333 / 0.272 / 0.316	0.0827 / 0.0818 / 0.0476	0 / 0 / 0
CUGGAGCGAUGGGGUGCG	0.727	0.254 / 0.168 / 0.298	0.0827 / 0 / 0.0317	0 / 0 / 0
CUGGAGCGAUGGGGUGGG	0.889	0.254 / 0.251 / 0.298	0.0207 / 0.0273 / 0.0159	0 / 0 / 0
CUGGAGCGAUGGGGUGUG	0.970	0.274 / 0.251 / 0.223	0.0620 / 0.0273 / 0	0 / 0 / 0
CUGGAGCGAUGGGGUUAG	0.824	0.176 / 0.105 / 0.261	0.0827 / 0.109 / 0.0317	0 / 0 / 0
CUGGAGCGAUGGGGUUCG	0.986	0.313 / 0.377 / 0.279	0.0414 / 0 / 0.0317	0 / 0 / 0
CUGGAGCGAUGGGGUUGG	0.905	0.215 / 0.209 / 0.205	0.0827 / 0 / 0.0793	0 / 0 / 0
CUGGAGCGAUGGGGUUUG	0.824	0.294 / 0.188 / 0.409	0.103 / 0 / 0.0317	0 / 0 / 0
CUGGAGCGAUGGGUUAAG	0.824	0.294 / 0.314 / 0.242	0.0207 / 0.0273 / 0.0634	0 / 0 / 0
CUGGAGCGAUGGGUUACG	0.937	0.254 / 0.209 / 0.372	0.103 / 0 / 0	0 / 0 / 0
CUGGAGCGAUGGGUUAGG	0.954	0.274 / 0.272 / 0.316	0.0414 / 0.0273 / 0	0 / 0 / 0
CUGGAGCGAUGGGUUAUG	0.760	0.235 / 0.209 / 0.298	0.0207 / 0 / 0.0317	0 / 0 / 0
CUGGAGCGAUGGGUUCAG	1.68	0.861 / 0.984 / 0.912	0.124 / 0.0273 / 0.0159	0 / 0 / 0.0399
CUGGAGCGAUGGGUUCCG	1.12	0.274 / 0.356 / 0.428	0 / 0 / 0.0159	0 / 0 / 0
CUGGAGCGAUGGGUUCGC	0.776	0.470 / 0.544 / 0.447	0 / 0 / 0	0 / 0 / 0.0399
CUGGAGCGAUGGGUUCGG	0.921	0.235 / 0.251 / 0.391	0.0207 / 0.0545 / 0	0 / 0 / 0
CUGGAGCGAUGGGUUCUG	0.808	0.235 / 0.272 / 0.484	0 / 0.0273 / 0	0 / 0 / 0
CUGGAGCGAUGGGUUGAG	1.05	0.333 / 0.314 / 0.168	0.0827 / 0 / 0	0 / 0 / 0
CUGGAGCGAUGGGUUGCG	0.857	0.411 / 0.335 / 0.223	0.124 / 0.0273 / 0.0159	0 / 0 / 0
CUGGAGCGAUGGGUUGGG	1.83	0.567 / 0.649 / 0.614	0 / 0.0273 / 0.0476	0 / 0 / 0.0399
CUGGAGCGAUGGGUUGUG	0.792	0.313 / 0.272 / 0.372	0.0620 / 0.0818 / 0.0159	0 / 0 / 0
CUGGAGCGAUGGGUUUAG	0.921	0.274 / 0.209 / 0.354	0.103 / 0 / 0.0159	0 / 0 / 0
CUGGAGCGAUGGGUUUCG	0.873	0.254 / 0.188 / 0.205	0.0414 / 0.0545 / 0.0317	0 / 0 / 0
CUGGAGCGAUGGGUUUGG	0.711	0.294 / 0.168 / 0.354	0.103 / 0.0273 / 0.0476	0 / 0 / 0
CUGGAGCGAUGGGUUUUG	1.65	0.665 / 0.921 / 1.17	0.103 / 0.0818 / 0.0317	0 / 0 / 0
CUGGAGCGAUGGUAUAAG	0.954	0.313 / 0.188 / 0.428	0.103 / 0 / 0.0476	0 / 0 / 0
CUGGAGCGAUGGUAUACG	0.970	0.137 / 0.209 / 0.503	0.0414 / 0.0273 / 0.0317	0 / 0 / 0
CUGGAGCGAUGGUAUAGG	0.743	0.235 / 0.293 / 0.186	0.0414 / 0.0545 / 0	0 / 0 / 0
CUGGAGCGAUGGUAUAUG	1.07	0.372 / 0.168 / 0.354	0.0620 / 0.0818 / 0	0 / 0 / 0
CUGGAGCGAUGGUAUCAG	0.840	0.254 / 0.272 / 0.354	0.0620 / 0 / 0.0476	0 / 0 / 0
CUGGAGCGAUGGUAUCCG	1.05	0.333 / 0.335 / 0.223	0.0620 / 0.0273 / 0.0476	0 / 0 / 0
CUGGAGCGAUGGUAUCGG	2.02	0.920 / 1.17 / 0.838	0.0827 / 0.0545 / 0.0317	0 / 0.0222 / 0
CUGGAGCGAUGGUAUCUG	0.873	0.313 / 0.398 / 0.205	0.103 / 0.109 / 0.0476	0 / 0 / 0
CUGGAGCGAUGGUAUGAG	0.873	0.313 / 0.377 / 0.242	0 / 0.0545 / 0.0159	0 / 0 / 0
CUGGAGCGAUGGUAUGCG	0.840	0.372 / 0.188 / 0.223	0.0827 / 0.0273 / 0.0317	0 / 0 / 0
CUGGAGCGAUGGUAUGGG	0.857	0.313 / 0.293 / 0.205	0.0827 / 0 / 0.0476	0 / 0 / 0
CUGGAGCGAUGGUAUGUG	0.760	0.254 / 0.419 / 0.596	0.0620 / 0.0818 / 0	0 / 0 / 0
CUGGAGCGAUGGUAUUAG	0.937	2.19 / 0.963 / 1.77	0.579 / 0 / 0.793	1.05 / 0 / 0
CUGGAGCGAUGGUAUUCG	1.05	0.391 / 0.838 / 0.316	0.103 / 0 / 0.0476	0 / 0 / 0

Excerpt, the final 3 entries:

* CUGGAGCGAUGGUAUGUG (pool 0.760) = inoculated region 0.254 / 0.419 / 0.596; leaf margin 0.0620 / 0.0818 / 0; systemic leaves 0 / 0 / 0
* CUGGAGCGAUGGUAUUAG (pool 0.937) = inoculated region 2.19 / 0.963 / 1.77; leaf margin 0.579 / 0 / 0.793; systemic leaves 1.05 / 0 / 0
* CUGGAGCGAUGGUAUUCG (pool 1.05) = inoculated region 0.391 / 0.838 / 0.316; leaf margin 0.103 / 0 / 0.0476; systemic leaves 0 / 0 / 0

With 36,693-63,082 reads a sample, very low values are single reads. The authors trace changes outside the varied positions to PCR and sequencing errors or to mutation in the plant; presence does not show that a variant is infectious alone.